According to article PMC5731819, “Single-molecule studies contrast ordered DNA replication with stochastic translesion synthesis” (eLife, 2017):

T1: E. coli DNA sliding clamp β (E. coli, UniProt P0A988 1-366, maleimide-Atto647N on a single cysteine residue (position not given))
T1 construct: DNA polymerase III subunit beta (sliding clamp β), E. coli, gene dnaN; also called β-clamp; β2 clamp; not shown: His tag (from the vector pET28a)
T1 sequence (looked up): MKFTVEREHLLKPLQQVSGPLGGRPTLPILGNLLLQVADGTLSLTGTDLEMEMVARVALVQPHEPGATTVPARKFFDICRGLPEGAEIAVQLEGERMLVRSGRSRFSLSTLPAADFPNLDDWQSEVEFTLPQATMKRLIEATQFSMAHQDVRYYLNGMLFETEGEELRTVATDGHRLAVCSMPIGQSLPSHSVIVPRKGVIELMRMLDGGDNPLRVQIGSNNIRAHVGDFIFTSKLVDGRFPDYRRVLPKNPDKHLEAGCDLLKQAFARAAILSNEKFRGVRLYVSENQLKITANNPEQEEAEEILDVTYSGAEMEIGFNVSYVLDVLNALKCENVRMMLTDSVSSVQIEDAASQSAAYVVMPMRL

T2: Pol IIIα (polymerase subunit α of Pol IIIcore), Atto 488 labelled (E. coli, UniProt P10443 1-1160, Atto 488 (CoA-linked) conjugated by Sfp to the N-terminal Ybbr tag)
T2 construct: DNA polymerase III subunit alpha (Pol IIIα), E. coli, gene dnaE; Observed as a subunit of Pol IIIcore on clamp-DNA; also called Pol IIIα-NYbbr; Pol IIIα-Atto 488
T2 sequence (looked up): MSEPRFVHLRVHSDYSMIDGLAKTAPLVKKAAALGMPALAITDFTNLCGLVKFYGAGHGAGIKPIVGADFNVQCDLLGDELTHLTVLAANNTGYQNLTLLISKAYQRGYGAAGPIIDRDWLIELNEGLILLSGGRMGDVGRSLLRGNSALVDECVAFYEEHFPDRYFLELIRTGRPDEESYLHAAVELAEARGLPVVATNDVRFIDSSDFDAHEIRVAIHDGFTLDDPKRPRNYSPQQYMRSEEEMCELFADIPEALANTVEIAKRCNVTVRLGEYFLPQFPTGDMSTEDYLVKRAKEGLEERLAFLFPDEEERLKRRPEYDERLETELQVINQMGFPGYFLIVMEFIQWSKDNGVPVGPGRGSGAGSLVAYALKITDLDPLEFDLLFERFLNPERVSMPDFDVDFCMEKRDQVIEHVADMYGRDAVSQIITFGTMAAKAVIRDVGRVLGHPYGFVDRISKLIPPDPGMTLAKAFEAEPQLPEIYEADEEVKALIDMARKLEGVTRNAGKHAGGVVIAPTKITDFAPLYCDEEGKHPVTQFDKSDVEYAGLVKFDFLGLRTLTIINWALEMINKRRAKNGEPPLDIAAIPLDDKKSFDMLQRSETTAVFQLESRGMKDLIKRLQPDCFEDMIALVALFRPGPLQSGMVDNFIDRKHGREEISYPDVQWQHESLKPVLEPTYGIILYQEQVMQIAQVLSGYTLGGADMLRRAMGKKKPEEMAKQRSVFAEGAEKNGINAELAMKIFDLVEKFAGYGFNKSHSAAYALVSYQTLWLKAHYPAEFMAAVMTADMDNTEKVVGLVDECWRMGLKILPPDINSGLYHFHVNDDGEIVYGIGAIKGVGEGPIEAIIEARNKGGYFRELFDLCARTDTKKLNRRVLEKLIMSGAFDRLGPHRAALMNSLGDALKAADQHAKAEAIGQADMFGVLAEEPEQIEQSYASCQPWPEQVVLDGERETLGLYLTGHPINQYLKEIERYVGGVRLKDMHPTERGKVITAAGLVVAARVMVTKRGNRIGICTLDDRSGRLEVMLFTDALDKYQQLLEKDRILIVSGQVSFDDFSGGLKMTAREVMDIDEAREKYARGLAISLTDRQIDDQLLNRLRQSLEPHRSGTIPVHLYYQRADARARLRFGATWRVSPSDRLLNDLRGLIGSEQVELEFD


Tests used:
[1] = molecular target: T1, E. coli DNA sliding clamp β; test: co-localization single-molecule spectroscopy (CoSMoS, TIRF); labelled Pol IIIcore (30 nM) on β-clamp loaded on surface-held matched DNA, no dNTPs; 23 °C, 20 mM Tris-HCl pH 7.5, 50 mM potassium glutamate, 8 mM MgCl2; details: both partners purified
[2] = molecular target: T2, Pol IIIα (polymerase subunit α of Pol …); test: co-localization single-molecule spectroscopy (CoSMoS, TIRF); Pol IIIcore with Atto 488 on α and Atto 565 on ε, on β-clamp loaded on surface-held DNA; details: both partners purified

Binder | lifetime on clamp-DNA [1] [s] | binding result [2]
Pol IIIcore (α, ε, θ), wild type, labelled on the α subunit (complex, E. coli, Atto 488 (CoA-linked) conjugated by Sfp to the N-terminal Ybbr tag, DNA polymerase III subunit alpha (Pol IIIα), E. coli, gene dnaE; DNA polymerase III subunit epsilon (proofreading exonuclease ε), E. coli, gene dnaQ; DNA polymerase III subunit theta (θ), E. coli, gene holE; also called replicative DNA polymerase; source: assembly of the core not described; not shown: His tag (from the vector pET28a); copies: + +) chain 1: MSEPRFVHLRVHSDYSMIDGLAKTAPLVKKAAALGMPALAITDFTNLCGLVKFYGAGHGAGIKPIVGADFNVQCDLLGDELTHLTVLAANNTGYQNLTLLISKAYQRGYGAAGPIIDRDWLIELNEGLILLSGGRMGDVGRSLLRGNSALVDECVAFYEEHFPDRYFLELIRTGRPDEESYLHAAVELAEARGLPVVATNDVRFIDSSDFDAHEIRVAIHDGFTLDDPKRPRNYSPQQYMRSEEEMCELFADIPEALANTVEIAKRCNVTVRLGEYFLPQFPTGDMSTEDYLVKRAKEGLEERLAFLFPDEEERLKRRPEYDERLETELQVINQMGFPGYFLIVMEFIQWSKDNGVPVGPGRGSGAGSLVAYALKITDLDPLEFDLLFERFLNPERVSMPDFDVDFCMEKRDQVIEHVADMYGRDAVSQIITFGTMAAKAVIRDVGRVLGHPYGFVDRISKLIPPDPGMTLAKAFEAEPQLPEIYEADEEVKALIDMARKLEGVTRNAGKHAGGVVIAPTKITDFAPLYCDEEGKHPVTQFDKSDVEYAGLVKFDFLGLRTLTIINWALEMINKRRAKNGEPPLDIAAIPLDDKKSFDMLQRSETTAVFQLESRGMKDLIKRLQPDCFEDMIALVALFRPGPLQSGMVDNFIDRKHGREEISYPDVQWQHESLKPVLEPTYGIILYQEQVMQIAQVLSGYTLGGADMLRRAMGKKKPEEMAKQRSVFAEGAEKNGINAELAMKIFDLVEKFAGYGFNKSHSAAYALVSYQTLWLKAHYPAEFMAAVMTADMDNTEKVVGLVDECWRMGLKILPPDINSGLYHFHVNDDGEIVYGIGAIKGVGEGPIEAIIEARNKGGYFRELFDLCARTDTKKLNRRVLEKLIMSGAFDRLGPHRAALMNSLGDALKAADQHAKAEAIGQADMFGVLAEEPEQIEQSYASCQPWPEQVVLDGERETLGLYLTGHPINQYLKEIERYVGGVRLKDMHPTERGKVITAAGLVVAARVMVTKRGNRIGICTLDDRSGRLEVMLFTDALDKYQQLLEKDRILIVSGQVSFDDFSGGLKMTAREVMDIDEAREKYARGLAISLTDRQIDDQLLNRLRQSLEPHRSGTIPVHLYYQRADARARLRFGATWRVSPSDRLLNDLRGLIGSEQVELEFD chain 2: MSTAITRQIVLDTETTGMNQIGAHYEGHKIIEIGAVEVVNRRLTGNNFHVYLKPDRLVDPEAFGVHGIADEFLLDKPTFAEVADEFMDYIRGAELVIHNAAFDIGFMDYEFSLLKRDIPKTNTFCKVTDSLAVARKMFPGKRNSLDALCARYEIDNSKRTLHGALLDAQILAEVYLAMTGGQTSMAFAMEGETQQQQGEATIQRIVRQASKLRVVFATDEEIAAHEARLDLVQKKGGSCLWRA chain 3: MLKNLAKLDQTEMDKVNVDLAAAGVAFKERYNMPVIAEAVEREQPEHLRSWFRERLIAHRLASVNLSRLPYEPKLK | 15.7 | 
proofreading exonuclease ε (subunit of Pol IIIcore), Atto 565 labelled (enzyme, E. coli, UniProt P03007 1-243, looked up, Atto 565 (CoA-linked) conjugated by Sfp to the N-terminal Ybbr tag, DNA polymerase III subunit epsilon (ε), E. coli, gene dnaQ; Observed as a subunit of Pol IIIcore on clamp-DNA; also called ε-NYbbr; ε-Atto 565; not shown: His tag (from the vector pET28a)) MSTAITRQIVLDTETTGMNQIGAHYEGHKIIEIGAVEVVNRRLTGNNFHVYLKPDRLVDPEAFGVHGIADEFLLDKPTFAEVADEFMDYIRGAELVIHNAAFDIGFMDYEFSLLKRDIPKTNTFCKVTDSLAVARKMFPGKRNSLDALCARYEIDNSKRTLHGALLDAQILAEVYLAMTGGQTSMAFAMEGETQQQQGEATIQRIVRQASKLRVVFATDEEIAAHEARLDLVQKKGGSCLWRA |  | binds
